Measurements as given in PMC11321762.
For at least one entry, the source does not settle the construct or the ends of the probe.

Biological target: GST-PthA4 (UniProt A0AAI8ETU3)
Test: EMSA
Conditions: partial shift at 6, 12, 24 ug protein, 25 ng DNA; recombinant protein; protein details: GST (N-terminal, pET41a(+)); label: Cy5

TCCCACTTTAATATATAAA (double strand) [PthA4 EBE of Cs9g12620 promoter (19 bp)]
binding result: binds
